These are literature values, as cited in article PMC11121871.

The target of the series is TLR4 (Homo sapiens) (UniProt O00206). Nature of the series: SPR. (In general: Surface plasmon resonance follows binding to a sensor surface in real time, without labels.)

The term Kd denotes the equilibrium constant for the complex coming apart. Take “SARS-CoV-2 spike trimer (from UniProt P0DTC2)”: the Kd was 0.3 µM.
